The record followed here is paper PMC9734137 (Cell Discovery, 2022).

To fix the notation:
B1: SARS1 RBD (domain or fragment)
chain: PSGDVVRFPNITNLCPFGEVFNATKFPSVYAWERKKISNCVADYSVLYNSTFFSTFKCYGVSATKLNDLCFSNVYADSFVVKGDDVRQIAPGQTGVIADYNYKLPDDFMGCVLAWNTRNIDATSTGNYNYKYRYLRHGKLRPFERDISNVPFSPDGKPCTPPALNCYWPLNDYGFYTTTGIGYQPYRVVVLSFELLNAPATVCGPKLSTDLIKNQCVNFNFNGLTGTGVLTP
B2: aSA3 (VHH)
VHH: QVQLVESGGGLVQPGGSLRLSCAASGFTSDHYALAWFRQAPGKEREGVSCIDSDGNPFYADSVKGRFTGSRDNAKNTVYLQMNSLKLEDTAVYYCAAGLWYGRSLNSFDYDYWGQGTQVTVSS

One assay deals with aSA3-Fc (alpaca). In words: SPR. To be noted: both partners purified.
Assay [1] concerns the target B1. Put plainly: cell-based or functional assay.
The target in assay [2] is B1. In words: SPR. To be noted: both partners purified.

A word on the Kd: it is the equilibrium constant for the complex coming apart. B1 yielded a Kd with aSA3-Fc of 0.0854 nM. That is a picomolar value. Regarding B2, in the assay with SARS1 RBD [1], the “IC50, neutralisation of SARS1 pseudovirus (blocks RBD-ACE2)” value amounted to 2.22 nM. Also, binding with SARS1 RBD [2] was put at a Kd of 0.361 nM.
